Measured values from several laboratories, pooled; numbers as filed in NIAID ChemDB.

Common to all: whole-cell or culture tests; agent: Candida albicans

An empty or dashed field is not shown. Rows are shuffled and stem from different studies. ECn: concentration that inhibits the pathogen or its effect by n%. a–b is a range or a potency band. Inhibition is in % at the dose shown (toxicity tests: loss of growth or viability). MIC50, MIC90 and the like: level of inhibition, or share of isolates inhibited. Zone: diameter of growth inhibition.

compound | method | read-out | strain | dose | conditions | result
Clc1ccccc1C(c1ccccc1)(c1ccccc1)n1ccnc1 | broth dilution | EC90 | 10 isolates |  | pH 4 | 0.5 µg/mL
Cc1ccc2nc(Cl)c(C3SC(=Cc4cccc([N+](=O)[O-])c4)C(=O)N3n3c(-c4ccc(Cl)cc4)nc4ccccc4c3=O)cc2c1 | broth dilution / visual reading | MIC99 |  |  |  | 500 µg/mL
COC(=O)[C@H]1[C@@H]2C[C@@H](O[C@@H]3O[C@H](C)[C@@H](O)[C@H](N)[C@@H]3O)/C=C/C=C/C=C/C=C/C=C/C=C/C=C/[C@H](C)[C@@H](O)[C@H](C)[C@H](C)OC(=O)C[C@H](O)C[C@H](O)[C@@H](O)CC[C@H](O)C[C@H](O)C[C@](O)(C[C@@H]1O)O2 | broth dilution | EC90 | 10 isolates |  | pH 5 | 4 µg/mL
CC(C)[C@]1(O)CC[C@]2(C)C=C[C@](C)(O)C[C@H](OCC(=O)c3ccccc3)[C@H]21 | broth dilution | EC90 |  |  |  | >50 µg/mL
CCC(C)CC(C)CCCCCCCCC(=O)N[C@H]1C[C@@H](O)[C@H](NCCN)NC(=O)[C@@H]2[C@@H](O)CCN2C(=O)[C@H]([C@H](O)CCN)NC(=O)[C@H]([C@H](O)[C@@H](O)c2ccc(O)cc2)NC(=O)[C@@H]2C[C@@H](O)CN2C(=O)[C@H]([C@@H](C)O)NC1=O |  | MFC90 | 10 strains (fluconazole- itraconazole-susceptible) |  |  | 1 µg/mL
O=C(NCc1ccc(Cl)cc1)c1ccccc1O |  | Geometric mean MIC | ATCC 44859 |  |  | 352.3 µM
C=CCSS(=O)CC=C | broth dilution | MIC50 | Clinical Isolate 0163 |  |  | 3.13 µg/mL
CCCCCOc1ccc(-c2cc(-c3ccc(C(=O)N[C@H]4C[C@@H](O)[C@@H](O)NC(=O)[C@@H]5[C@@H](O)[C@@H](C)CN5C(=O)[C@H]([C@H](O)CC(N)=O)NC(=O)[C@H]([C@H](O)[C@@H](O)c5ccc(O)c(OS(=O)(=O)O)c5)NC(=O)[C@@H]5C[C@@H](O)CN5C(=O)[C@H]([C@@H](C)O)NC4=O)cc3)no2)cc1 |  | MFC50 | 12 isolates |  |  | 0.0313 µg/mL
C[C@@H](N1CCN(Cc2cn(Cc3ccc(C(F)(F)F)cc3)c3c(F)cccc23)CC1)[C@](O)(Cn1cncn1)c1ccc(F)cc1F | resazurin | MIC80 | ATCC MYA-1003 |  |  | >128 µg/mL
CC1=CC[C@@]2(C)CC[C@@](O)(C(C)C)[C@@H]2[C@@H](OCC(=O)c2ccccc2)C1 | broth dilution | EC90 |  |  |  | >50 µg/mL
Cc1ccc(C=C2SC(c3cc4cc(C)ccc4nc3Cl)N(n3c(-c4ccc(Cl)cc4)nc4ccccc4c3=O)C2=O)cc1 | broth dilution / visual reading | MIC99 |  |  |  | 1000 µg/mL
Cc1cc(C=Nc2ccc(N=Cc3cc(C)cc(/C=N/Nc4nc5ccccc5s4)c3O)cc2)c(O)c(/C=C/Nc2nc3ccccc3s2)c1 | turbidity | inhibition |  | 5 µg/mL |  | 0.36%
C[C@@H](N1CCN(Cc2cn(Cc3ccc(F)cc3F)c3cc(Cl)ccc23)CC1)[C@](O)(Cn1cncn1)c1ccc(F)cc1F | resazurin | MIC80 | ATCC MYA-1003 |  |  | 8 µg/mL
COc1cc(C=C2SC(c3cc4cc(C)ccc4nc3Cl)N(n3c(-c4ccc(Cl)cc4)nc4ccccc4c3=O)C2=O)cc(OC)c1OC | broth dilution / visual reading | MIC99 |  |  |  | 1000 µg/mL
C[C@@H](N1CCN(Cc2cn(Cc3ccc(Cl)cc3)c3c(Cl)cccc23)CC1)[C@](O)(Cn1cncn1)c1ccc(F)cc1F | resazurin | MIC80 | ATCC 36082 |  |  | 0.125 µg/mL
CCCCCCCCCCCCCCCCOP(=O)([O-])OCC[N+](C)(C)C | broth dilution | MFC | ATCC 10231 |  |  | 2 µg/mL
COc1cc(C(=O)CO[C@H]2C[C@](C)(O)C=C[C@@]3(C)CC[C@@](O)(C(C)C)[C@H]23)ccc1O | broth dilution | EC90 |  |  |  | >50 µg/mL
COc1ccc(/C=N\O)cc1 | broth dilution | MFC100 |  |  |  | >6620 µM
CC1CC(=O)N(c2ccc(F)cc2)C1=O | broth dilution / turbidity | MIC | ATCC 10231 |  |  | 250 µg/mL
Cc1ccc(C(C)C)cc1 |  | MLC | M1 |  |  | 0.16–0.32 µg/mL
Cc1ccc2nc(Cl)c(C3SC(=Cc4ccccc4[N+](=O)[O-])C(=O)N3n3c(-c4ccc(Cl)cc4)nc4ccccc4c3=O)cc2c1 | broth dilution / visual reading | MIC99 |  |  |  | 100 µg/mL
CC(C)[C@]1(O)CC[C@]2(C)C=C[C@@](C)(O)C[C@H](OCC(=O)c3ccccc3)[C@H]21 | broth dilution | EC90 |  |  |  | >50 µg/mL
C[C@H](CCC(=N)N)C1CC[C@@]2(C)C3=C(CCC12C)C1(C)CCC(O)C(C)(C)C1CC3.O=S(=O)(O)C(F)(F)F |  | MLC |  |  |  | 12.5 µg/mL
COc1cc(C(=O)CO[C@H]2C[C@@]3(C)O[C@H]3C[C@@]3(C)CC[C@@](O)(C(C)C)[C@H]23)ccc1O | broth dilution | EC90 |  |  |  | >50 µg/mL
Cc1ccc2nc(Cl)c(C3SC(=Cc4ccccc4Cl)C(=O)N3n3c(-c4ccc(Cl)cc4)nc4ccccc4c3=O)cc2c1 | broth dilution / visual reading | MIC99 |  |  |  | 500 µg/mL
CC(C)C[C@H](N)C(=O)O | broth dilution | MFC100 | D 17 |  |  | >72000 µg/mL
C[C@H]1[C@H](O)[C@@H](C)/C=C/C=C/C=C/C=C/C=C/C=C/C=C/[C@H](O[C@@H]2O[C@H](C)[C@@H](O)[C@H](N)[C@@H]2O)C[C@@H]2O[C@](O)(C[C@@H](O)C[C@@H](O)CC[C@H](O)[C@@H](O)C[C@@H](O)CC(=O)O[C@H]1C)C[C@H](O)[C@H]2C(=O)O | broth dilution / absorbance | MIC99 | ATCC 90028 |  |  | 0.78 µM
CC1=C[C@H](OCC(=O)c2ccccc2)[C@@H]2[C@](C)(CC[C@@]2(O)C(C)C)CC1O | broth dilution | EC90 |  |  |  | >50 µg/mL
O=C(Cn1cncn1)c1ccc([N+](=O)[O-])cc1 | broth dilution | inhibition | Fluconazole-resistant | 80 µg/mL |  | 16%
CC1C(=O)N(CCCc2ccccc2)C(=O)C1C | broth dilution / turbidity | MIC | ATCC 10231 |  |  | 62.5 µg/mL
COc1ccc(C(=O)Cn2cncn2)cc1 | broth dilution | inhibition | Fluconazole-resistant | 100 µg/mL |  | 60%
C[C@@H]1[C@H](O)[C@@H](C)/C=C/C=C/C=C/C=C/C=C/C=C/C=C/[C@H](O[C@@H]2O[C@H](C)[C@@H](O)[C@H](N)[C@@H]2O)C[C@@H]2O[C@](O)(C[C@@H](O)C[C@@H](O)[C@H](O)CC[C@@H](O)C[C@@H](O)CC(=O)O[C@H]1C)C[C@H](O)[C@H]2C(=O)O | broth dilution | MFC | ATCC 10231 |  |  | 8 µg/mL
CC[C@@H]([C@H](C)O)n1ncn(-c2ccc(N3CCN(c4ccc(OC[C@@H]5CO[C@@](Cn6cncn6)(c6ccc(F)cc6F)C5)cc4)CC3)cc2)c1=O | broth dilution | EC90 | 15 isolates |  | pH 7 | 0.03 µg/mL
Cc1ccc2nc(Cl)c(C3SC(=Cc4ccc(Cl)cc4)C(=O)N3n3c(-c4ccc(Cl)cc4)nc4ccccc4c3=O)cc2c1 | broth dilution / visual reading | MIC99 |  |  |  | 500 µg/mL
Clc1ccc(C(Cn2ccnc2)OCc2csc3c(Cl)cccc23)c(Cl)c1 | absorbance | MIC50 | 63 isolates |  | 48 h | 0.5 µg/mL
CC1=C[C@H](OCC(=O)c2ccccc2)[C@@H]2[C@](C)(CC[C@@]2(O)C(C)C)CC1=O | broth dilution | EC90 |  |  |  | >50 µg/mL
O=c1cc(CO)occ1O |  | MIC99 | CAN276 |  |  | >12800 µM
COc1ccc(C(=O)Cn2ccnc2)cc1 | broth dilution | inhibition | Fluconazole-resistant | 80 µg/mL |  | 55%
COc1ccc(CNC(=O)c2ccccc2O)cc1 |  | Geometric mean MIC | ATCC 44859 |  |  | 431.8 µM
C[C@H]1[C@H](O)[C@@H](C)/C=C/C=C/C=C/C=C/C=C/C=C/C=C/[C@H](O[C@@H]2O[C@H](C)[C@@H](O)[C@H](N)[C@@H]2O)C[C@@H]2O[C@](O)(C[C@@H](O)C[C@@H](O)CC[C@H](O)[C@@H](O)C[C@@H](O)CC(=O)O[C@H]1C)C[C@H](O)[C@H]2C(=O)O | broth dilution / turbidity | MIC | ATCC 10231 |  |  | 0.97 µg/mL
CC(C)CC(=O)C(=O)O | broth dilution | MFC100 | ATCC 10231 |  |  | >72000 µg/mL
N=C(N)c1ccc2nc(-c3ccc(-c4nc5ccc(C(=N)N)cc5[nH]4)[nH]3)[nH]c2c1 |  | MFC | Isolate CA2256 fluconazole-resistant |  |  | 0.78 µg/mL
CC(C)[C@]1(O)CC[C@]2(C)C[C@@H]3O[C@]3(C)C[C@H](OCC(=O)c3ccccc3)[C@H]21 | broth dilution | EC90 |  |  |  | >50 µg/mL
C[C@@H](N1CCN(Cc2cn(Cc3cccc(C(F)(F)F)c3)c3c(F)cccc23)CC1)[C@](O)(Cn1cncn1)c1ccc(F)cc1F | resazurin | MIC80 | ATCC 36082 |  |  | 0.125 µg/mL
CCCCN(CCCOP(=O)([O-])OCC[N+](C)(C)C)c1c([N+](=O)[O-])cc(C(F)(F)F)cc1[N+](=O)[O-] | broth dilution | MFC | ATCC 10231 |  |  | >16 µg/mL
C[C@@H]1CC(=O)N(c2ccc(Cl)cc2)C1=O | broth dilution / turbidity | MIC | ATCC 10231 |  |  | 125 µg/mL
C=CCc1ccc(OC)c(OC)c1 | turbidity | MIC90 | 2883 |  |  | 345 µg/mL
CCC(C)n1ncn(-c2ccc(N3CCN(c4ccc(OC[C@H]5CO[C@](Cn6cncn6)(c6ccc(Cl)cc6Cl)O5)cc4)CC3)cc2)c1=O |  | Mean MIC80 |  |  |  | 3.81 µg/mL
C/C=C/C1=CC2=CC(=O)[C@](C)(OC(=O)c3c(C)cc(O)cc3OC)C(=O)C2=CO1 | agar diffusion | zone | ATCC 64548 | 50 µg/disc |  | 0 mm
CCC(C)n1ncn(-c2ccc(N3CCN(c4ccc(OC[C@H]5CO[C@](Cn6cncn6)(c6ccc(Cl)cc6Cl)O5)cc4)CC3)cc2)c1=O |  | Geometric mean MIC | 17 isolates fluconazole-susceptible |  |  | 0.05 µg/mL
CC1CC(=O)N(CCCc2ccccc2)C1=O | broth dilution / turbidity | MIC | ATCC 10231 |  |  | 125 µg/mL

Repeating the final 3 entries:

compound	method	read-out	strain	dose	conditions	result
C/C=C/C1=CC2=CC(=O)[C@](C)(OC(=O)c3c(C)cc(O)cc3OC)C(=O)C2=CO1	agar diffusion	zone	ATCC 64548	50 µg/disc		0 mm
CCC(C)n1ncn(-c2ccc(N3CCN(c4ccc(OC[C@H]5CO[C@](Cn6cncn6)(c6ccc(Cl)cc6Cl)O5)cc4)CC3)cc2)c1=O		Geometric mean MIC	17 isolates fluconazole-susceptible			0.05 µg/mL
CC1CC(=O)N(CCCc2ccccc2)C1=O	broth dilution / turbidity	MIC	ATCC 10231			125 µg/mL